According to paper PMC6445327, “Inhibition of the α-carbonic anhydrase from Vibrio cholerae with amides and sulfonamides incorporating imidazole moieties” (Journal of Enzyme Inhibition and Medicinal Chemistry, 2017):

These molecules were tested on two V. cholerae O1 strains (ATCC14103 and ISS-Vc014) (assay: In vitro antibacterial assay (broth dilution), strain not distinguished). Details: tested 0.1 μg ml^−1 to 1 mg ml^−1; effect at 1 mg ml^−1.
Type: cell-based, Vibrio cholerae

Row | Structure (SMILES) | inhibition of the bacterial growth
1 | O=C(NCCCn1ccnc1)c1ccc(C(F)(F)F)cc1 [Compound 7, N-(3-(1H-imidazol-1-yl)propyl)-4-(trifluoromethyl)benzamide] | partial inhibition
2 | O=S(=O)(NCCCn1ccnc1)c1ccc(F)cc1 [Compound 2, N-(3-(1H-imidazol-1-yl)propyl)-4-fluorobenzenesulfonamide] | partial inhibition
3 | O=C(NCCCn1ccnc1)c1ccc([N+](=O)[O-])cc1 [Compound 8, N-(3-(1H-imidazol-1-yl)propyl)-4-nitrobenzamide] | partial inhibition
